Compound potency records, mixed from different reports. Data source: NIAID ChemDB in PubChem.

Shared fields: whole-cell or culture tests; species: Mycobacterium tuberculosis

ECn is the concentration giving n% inhibition of infection, replication or growth.

compound,strain,mutations,cell line,method,setting,endpoint,dose,value
CCN=c1cc2n(-c3ccc(C(F)(F)F)cc3)c3ccccc3nc-2cc1Nc1ccc(C(F)(F)F)cc1,2219,,,,multidrug-resistant,MIC,,≤0.06 µg/mL
CCCCCCCCCCCCCCCCNC(CCO)C1OC2OC(C)(C)OC2[C@H]1OC,H37Rv,,,,,MIC,,12.5 µg/mL
Cc1c(CN2CCN(c3ccccn3)CC2)cc(-c2ccc(Cl)cc2)n1NC(=O)c1cnccn1,27294,,,,,MIC,,>16 µg/mL
O=C(c1ccccc1O)c1cc(-c2ncc3c(=O)c4ccccc4oc3n2)c(-c2ccccc2O)nc1O,H37Rv,,,BACTEC,,MIC bound,,>12.5 µg/mL
Cc1ccc2occ(C=Cc3sc4ccccc4[n+]3C)c(=O)c2c1,H37Rv,,,,,MIC,,125 µM
O=C(O)CC[C@H](NC(=O)c1ccc(NCc2cnc3[nH]c(=O)[nH]c(=O)c3n2)cc1)C(=O)O,H37Rv,,,BACTEC,,MIC bound,,>6.25 µg/mL
Cc1ccccc1S(=O)(=O)Nc1nc(Cl)cc2c1ncn2C,H37Rv,,,visual reading,,MIC99,,>25 µM
O=C(Oc1ccc(Cl)cc1C(=O)Nc1ccc(Cl)c(Cl)c1)c1cnccn1,H37Rv,,,broth dilution,14 d,MIC100,,2 µM
CC(=O)NC[C@H]1CN(c2ccc(N3CCSCC3)c(F)c2)C(=O)O1,,,,,,MIC90,,1 µg/mL
O=C1CCc2ccc(cc2)Oc2cc(ccc2O)CCCO1,H37Rv,,,resazurin,,EC50,,>100 µg/mL
O=c1c(C=Cc2sc3ccccc3[n+]2Cc2ccccc2)coc2ccccc12,H37Rv,,,,,MIC,,250 µM
Cn1cnc2c(NS(=O)(=O)c3ccccc3)nc(Cl)cc21,H37Rv,,,visual reading,,MIC99,,>25 µM
O=c1cc(-c2ccccc2)c2cc(Cl)ccc2o1,,Kanamycin-resistant,,resazurin,,MIC90,,>100 µg/mL
NNC(=O)c1cccs1,H37Rv,,,visual reading,,MIC,,5–10 µg/mL
Cc1cc(CN2CCN(c3ccc(F)cc3)CC2)c(-c2ccc(Cl)cc2)n1NC(=O)c1cnccn1,27294,,,,,MIC,,>16 µg/mL
CCCCCCOc1ccccc1NC(=O)OC(C)CN1CCCCC1,My 331/88,,,,,MIC,,16 µM
O=c1c2ccc(Cl)cc2nc2n1OCC2,H37Rv,,,resazurin,,inhibition,6.25 µg/mL,-8%
Cc1ccc2occ(C=Cc3sc4ccccc4[n+]3Cc3ccccc3)c(=O)c2c1,H37Rv,,,,,MIC,,125 µM
CC1CN(c2c(F)cc3c(=O)c(C(=O)O)cn(C4CC4)c3c2F)CC(C)N1,Erdman,,,,,MIC,,0.25 µg/mL
C=C(C)C(=O)O[C@H]1CC2=C[C@@H](C[C@@]3(C)O[C@H]3[C@H]3OC(=O)C(=C)[C@@H]31)OC2=O,H37Rv,,,BACTEC,,inhibition,12.8 µg/mL,63%
C=CC[n+]1c(C=Cc2coc3ccccc3c2=O)sc2ccccc21,H37Rv,,,,,MIC,,125 µM
NC(=O)c1ccc[n+](CCO)c1.[Cl-],H37Rv,,,BACTEC,,inhibition,12.5 µg/mL,15%
CCn1cc(C(=O)O)c(=O)c2cc(F)c(N3CCN(CC(=O)c4ccc(Br)cc4)CC3)nc21,H37Rv,,,,,EC50,,>6.25 µg/mL
C[C@H]1COc2c(N3CCN(C)CC3)c(F)cc3c(=O)c(C(=O)O)cn1c23,CSU26,,,,,MIC,,0.5 µg/mL
O=C(N/N=C/c1ccc(Cl)cc1)c1cc(-c2ccc(F)cc2F)ccc1O,H37Rv,,,resazurin,,MIC,,>6.25 µg/mL
COc1cc(OC)c(/C=N/Nc2cc(C)c3ccc(OC)cc3n2)c(OC)c1,H37Rv,,,BACTEC,,MIC,,≥12.5 µg/mL
Cc1ccc2ccccc2c1-c1[nH]c(-c2ccc(Cl)cc2)cc1CN1CCN(c2ccccn2)CC1,27294,,,,,MIC,,4 µg/mL
CCCCCCOc1ccc(NC(=O)OCCN2CCCCC2)cc1,My 331/88,,,,,MIC,,32 µM
Cc1c(NC(=S)Nc2ccccc2)c(=O)n(-c2ccccc2)n1C,H37Rv,,,BACTEC,,inhibition,12.8 µg/mL,26%
Cc1ccccc1C(=O)Nc1nc(Cl)cc2c1ncn2C,H37Rv,,,visual reading,,MIC99,,>25 µM
O=C(O)c1cn(C2CC2)c2cc(N3CCN(C/C(=N/O)c4ccccc4)CC3)c(F)cc2c1=O,H37Rv,,VERO,,,inhibition,6.25 µg/mL,100%
COc1c2ccoc2cc2oc(=O)ccc12,H37Ra,,,resazurin,,MIC90,,200 µg/mL
CCOC(=O)C(CC(C)C)NC(=O)c1cc(Br)c(C(Br)Br)c2c1Nc1c(c(C)c3oc(=O)c(C)nc3c1C(=O)NC(CC(C)C)C(=O)OCC)O2,H37Rv,,,BACTEC,,inhibition,12.5 µg/mL,-8%
C[C@@H]1CN(c2c(F)c(N)c3c(=O)c(C(=O)O)cn(C4CC4)c3c2F)C[C@H](C)N1,CSU21,,,,,MIC,,0.25 µg/mL
CC(C)(O)c1ccc2c(c1)CC[C@H]1[C@](C)(C(=O)O)CCC[C@]21C,H37Ra,,,resazurin,,MIC,,50 µg/mL
CCCCCCCCCCCCCCCCCCNC(CCO)C1OC2OC(C)(C)OC2[C@@H]1OCc1ccccc1,H37Ra,,,,,MIC,,12.5 µg/mL
O=C(Oc1cc(Cl)ccc1C(=O)Nc1ccc(Cl)c(Cl)c1)c1cnccn1,H37Rv,,,broth dilution,14 d,MIC100,,1 µM
Cc1nc2c(sc3ccccc3n2C)c2nc3c(sc4ccccc4n3C)c(C)c12,H37Rv,,,BACTEC,,MIC bound,,>12.5 µg/mL
Cc1ccc2occ(C=Cc3nc4ccccc4s3)c(=O)c2c1,H37Rv,,,,,MIC,,250 µM
CCn1cc(C(=O)O)c(=O)c2cc(F)c(N3CCN(CC(=O)c4ccccc4)CC3)nc21,H37Rv,,,,,MIC,,>6.25 µg/mL
CC1(C)OC2O[C@H](C(CCO)NC3CCCCC3)C3OC(C)(C)OC3C2O1,H37Rv,,,,,MIC,,12.5 µg/mL
Cc1ccc2ccccc2c1-c1[nH]c(-c2ccc(Cl)cc2)cc1CN1CCN(c2cccc(C(F)(F)F)c2)CC1,27294,,,,,MIC,,4 µg/mL
Oc1ccc(Br)cc1-c1nc2cc(Cl)c(Cl)cc2nc1-c1cc(Br)ccc1O,H37Rv,,VERO,,,MIC,,6.25 µg/mL
O=c1ccc2ccc3occc3c2o1,H37Ra,,,resazurin,,MIC90,,400 µg/mL
NNC(=O)c1ccncc1,H37Rv,,,visual reading,,MIC,,0.05 µg/mL
CCCCCCCCCCCCNC(CCO)C1OC2OC(C)(C)OC2[C@@H]1OC,H37Rv,,,,,MIC,,25 µg/mL
C[n+]1c(C=Cc2coc3ccc(Cl)cc3c2=O)sc2ccccc21,H37Rv,,,,,MIC,,250 µM
COc1cccc2c1OC1(C=C2)Oc2ccccc2C(=O)N1C,H37Rv,,,resazurin,,MIC bound,,>6.25 µg/mL
O=C(N/N=C/c1ccc([N+](=O)[O-])cc1)c1cc(-c2ccc(F)cc2F)ccc1O,H37Rv,,,resazurin,,inhibition,6.25 µg/mL,23%
O=C(Nc1ccc(Cl)c(Cl)c1)c1cc(Cl)ccc1O,H37Rv,,,broth dilution,14 d,MIC100,,4 µM
CC1=N/C(=C\c2cccs2)C(=O)O1,H37Rv,,,BACTEC,,inhibition,12.5 µg/mL,11%
CCc1nc2ccccc2n1CCCCOc1ccc(C)c(Cl)c1,H37Rv-MA,,,turbidity / fluorescence,,MIC90,,1.6 µM
CCCCCCCCCCCCCCCCCCNC(CCO)[C@H]1OC2OC(C)(C)OC2C2OC(C)(C)OC21,H37Ra,,,,,MIC,,3.12 µg/mL
O=C(Nc1ccc(C(F)(F)F)cc1)c1cc(Cl)ccc1O,H37Rv,,,broth dilution,14 d,MIC100,,2 µM
COc1cc2occc2c2oc(=O)ccc12,H37Ra,,,resazurin,,MIC90,,400 µg/mL
Cc1ccc(/C=N/NC(=O)c2cc(-c3ccc(F)cc3F)ccc2O)cc1,H37Rv,,,resazurin,,inhibition,6.25 µg/mL,12%
CCCCCCCOc1cccc(NC(=O)OC(COCC)CN2CCCCC2)c1,My 331/88,,,,,MIC,,4 µM
CN[C@@H]1[C@H](O[C@H]2[C@H](O[C@H]3[C@H](O)[C@@H](O)[C@H](N=C(N)N)[C@@H](O)[C@@H]3N=C(N)N)O[C@@H](C)[C@]2(O)C=O)O[C@@H](CO)[C@H](O)[C@H]1O,H37Rv,,,,,MIC,,0.25 µg/mL
Nc1ccc2c(c1N)Oc1ccccc1O2,H37Rv,,,resazurin,,inhibition,6.25 µg/mL,41%
CCCCCCCCCCCCC1OC2OC(C)(C)OC2[C@@H]1OCc1ccccc1,H37Rv,,,,,MIC,,<12.5 µg/mL
CCOC(=O)c1noc(/C=C/c2ccccc2)c1C(=O)c1ccccc1,ATCC 27294,,,resazurin,,MIC,,58.2 µM
CC(C)C12C=C3CC[C@H]4[C@](C)(C(=O)O)CCC[C@]4(C)[C@]3(CC1)OO2,H37Ra,,,resazurin,,MIC,,50 µg/mL
Cc1cc(O)c2c(c1)C(=O)C=CC2=O,,,,,,MIC,,0.5 µg/mL
COc1ccccc1N1CCN(Cc2cc(-c3c(C)ccc4ccccc34)[nH]c2-c2ccc(Cl)cc2)CC1,27294,,,,,MIC,,8 µg/mL
COc1nc2ccc(Br)cc2cc1[C@@H](c1ccccc1)[C@@](O)(CCN(C)C)c1cccc2ccccc12,H37Rv-MA cydC::aph,,,turbidity / fluorescence,,MIC90,,0.43 µM
CO[C@H]1/C=C/O[C@@]2(C)Oc3c(C)c(O)c4c(O)c(c5c(c4c3C2=O)NC2(CCN(CC(C)C)CC2)N=5)=NC(=O)/C(C)=C\C=C\[C@H](C)[C@H](O)[C@@H](C)[C@@H](O)[C@@H](C)[C@H](OC(C)=O)[C@@H]1C,CSU18,,,,,MIC,,≤0.125 µg/mL
O=C(N/N=C/c1ccccc1F)c1cc(-c2ccc(F)cc2F)ccc1O,H37Rv,,,resazurin,,MIC,,>6.25 µg/mL
CCCCCCOc1ccc(NC(=O)OC(C)CN2CCCCC2)cc1,My 331/88,,,,,MIC,,8 µM
Fc1ccc(CSC(=S)Nc2ccc(F)cc2)cc1,H37Rv,,,BACTEC,,MIC bound,,≤128 µg/mL
CC(C)N=c1cc2n(-c3ccc(Cl)cc3)c3ccccc3nc-2cc1Nc1ccc(Cl)cc1,H37Rv-MA cydC::aph,,,turbidity / fluorescence,,MIC90,,0.19 µM
N#Cc1cnn2ccn(C3OC(COC(=O)c4ccccc4)C(OC(=O)c4ccccc4)C3OC(=O)c3ccccc3)c12,H37Rv,,,BACTEC,,inhibition,12.5 µg/mL,0%
CCCCCCCCCCCCCCCCCCNC(CCO)C1OC2OC(C)(C)OC2[C@H]1OCc1ccccc1,H37Rv,,,,,MIC,,25 µg/mL
O=C(Oc1cc(Br)ccc1C(=O)Nc1ccc(C(F)(F)F)cc1)c1cnccn1,H37Rv,,,broth dilution,14 d,MIC100,,0.5 µM
CCc1nc2ccccc2n1CCCCOc1ccc2sc(C)nc2c1,H37Rv-MA,,,turbidity / fluorescence,,MIC90,,2.7 µM
c1cc2c3c(cccc3c1)NC1(CCC3(CC1)Nc1cccc4cccc(c14)N3)N2,H37Rv,,,,,MIC,,8 µg/mL
CC(=O)NC[C@H]1CN(c2ccc(N3CCOCC3)c(F)c2)C(=O)O1,117 strains,,,,,Geometric mean MIC,,0.506 µg/mL
Cn1cnc2c(NC(=O)c3cccc(F)c3)nc(Cl)cc21,H37Rv,,,visual reading,,MIC99,,6.25 µM
COC(=O)c1nc(C)c(C)nc1N,H37Rv,,,BACTEC,,inhibition,12.5 µg/mL,0%
C=CC[n+]1c(C=Cc2coc3ccc(C)cc3c2=O)sc2ccccc21,H37Rv,,,,,MIC,,250 µM
CC(=O)Nn1c(-c2ccccc2)c[n+]2ccccc12,H37Rv,,,BACTEC,,inhibition,12.5 µg/mL,-3%
COc1ccccc1N1CCN(Cc2cc(-c3ccc(Cl)cc3)n(NC(=O)c3cnccn3)c2C)CC1,27294,,,,,MIC,,>16 µg/mL
Cc1ccc(S(=O)(=O)NC(=S)S)cc1,H37Rv,,,BACTEC,,MIC bound,,>128 µg/mL
COc1c2ccoc2c(OC)c2oc(=O)ccc12,H37Ra,,,resazurin,,MIC90,,>400 µg/mL
CC(=O)Nc1ccc(/C=N/NC(=S)Nc2ccc3cn[nH]c3c2)cc1,H37Rv,,,BACTEC,,MIC bound,,>12.5 µg/mL
O=C(N/N=C/c1cccc(F)c1)c1cc(-c2ccc(F)cc2F)ccc1O,H37Rv,,,resazurin,,inhibition,6.25 µg/mL,23%

MIC50, MIC90 and the like: level of inhibition, or share of isolates inhibited. MIC bound comes from a single tested concentration. Percent inhibition refers to the dose given; in toxicity tests it is the harm to the cells. Two numbers with a dash give a range or band. Neighbouring rows are from separate reports. An empty or dashed field is not shown.